Measured values reported in patent US20070122429A1, “Designed antigens to elicit neutralizing antibodies against sterically restricted antigen and method of using same” (priority 2005, published 2007).

Target: HIV-1 HXB2 Env (gp41 N-trimer region) (HIV-1 HXB2) (UniProt P04578)
Assay: cell-based or functional assay

**Q.** For “Ub-C37 (from UniProt P0CG48 1-76; P04578 625-661)”, which IC50, cell-cell fusion (HXB2 Env) is on record?
**A.** 4.7 nM
